Compound potency records, mixed from different reports. Data source: NIAID ChemDB in PubChem.

Common to all: whole-cell or culture tests

Neighbouring rows are from separate reports. ECn: concentration that inhibits the pathogen or its effect by n%. A number after MIC or MFC names an inhibition level or a share of isolates. Inhibition is in % at the dose shown (toxicity tests: loss of growth or viability). An empty or dashed field is not shown.

smiles,changes,read by,endpoint,dose,strain or isolate,species,cell line,result
CCc1c(C(=O)c2cc(C)cc(C)c2)n(CC2CC=CC2)c(=O)[nH]c1=O,,cytopathic effect / XTT,EC50,,,HIV-2,CEM + CEM-SS,0.0004 µM
CCO/N=C/c1ccc(OCCC2CCN(c3ccc(C)nn3)CC2)cc1,,neutral red,EC50,,CH82 (ICAM-1 receptor group 56),Rhinovirus,KB,0.002 µM
CO[C@H](C)[C@@H](NC(=O)[C@@H]1CCCN1C)[C@@H]1O[C@@H](SCCOC(=O)c2ccccc2O)[C@@H](O)[C@H](O)[C@H]1O,,cytopathic effect,EC50,,KOS,Herpes simplex virus 1,HeLa,>200 µg/mL
Nc1nc2c(nnn2CCOCP(=O)(O)O)c(=O)[nH]1,,cytopathic effect,EC50,,GS,Human herpesvirus 6,HSB-2,25 µM
C[C@H](Cn1cnc2c(N)ncnc21)OCP(=O)(O)O,,p27 / ELISA,EC50,,,SIV,PBMC,0.0675 µM
Nc1ncnc2c1ncn2[C@@H]1C=C(CO)[C@@H](O)[C@H]1O,,cytopathic effect,EC50,,AD169,Cytomegalovirus,HEL,1.1 µg/mL
NC(=O)c1c[se]c([C@@H]2O[C@H](CO)[C@@H](O)[C@H]2O)n1,,cytopathic effect,EC50,,Sicilian/Brownell,Sandfly fever virus,VERO,1.2 µg/mL
CC1(C)[C@@H](O[C@H]2O[C@H](C(=O)O)[C@@H](O)[C@H](O)[C@H]2O[C@@H]2O[C@H](C(=O)O)[C@@H](O)[C@H](O)[C@H]2O)CC[C@]2(C)[C@H]3C(=O)C=C4[C@@H]5C[C@@](C)(C(=O)O)CC[C@]5(C)CC[C@@]4(C)[C@]3(C)CC[C@@H]12,,virus yield,EC90,,TYPE 2 (NGC),Dengue virus,VERO,317 µg/mL
OC[C@H]1O[C@@H](n2cnc3c(NC4CCCCCC4)nc(Cl)nc32)CC1O,,cytopathic effect,EC50,,KV1772,Maedi-visna virus,Sheep chondrocytes G81092,0.27 µM
CCC[C@H](NC(=O)[C@@H]1[C@H]2CCC[C@H]2CN1C(=O)[C@@H](NC(=O)[C@@H](NC(=O)c1cnccn1)C1CCCCC1)C(C)(C)C)C(=O)C(=O)NC1CC1,,antigen,EC50,,JFH-1,Hepatitis C virus,Huh7.5,0.516 µM
Nc1ncnc2c1ncn2C[C@H](O)CO,,cytopathic effect,EC50,,,Vesicular stomatitis virus,PRK,10 µg/mL
CC(C)(C)C(=O)OCOP(=O)(COCCn1cnc2c(N)ncnc21)OCOC(=O)C(C)(C)C,,cytopathic effect,EC50,,GS,Human herpesvirus 6,HSB-2,0.56 µM
C=C[C@]1(C)C[C@@H](OC(=O)CO)[C@]2(C)C(C)CC[C@]3(CCC(=O)C32)[C@@H](C)[C@@H]1O,,cytopathic effect,EC50,,KOS,Herpes simplex virus 1,HeLa,40 µM
Nc1nc(Cl)nc2c1ncn2[C@H]1C[C@H](O)[C@@H](CO)O1,,cytopathic effect,EC50,,KV1772,Maedi-visna virus,Sheep chondrocytes G81092,1.5 µM
CCCCNC(=O)n1c(NC(=O)OC)nc2ccccc21,,,EC50,,IU4,Cryptococcus neoformans,,2.3 µg/mL
C=C[C@@H]1C[C@]1(NC(=O)[C@@H]1C[C@@H](Oc2nccc3ccc(Br)cc23)CN1C(C)=O)C(=O)NS(=O)(=O)C1CC1,,luciferase,EC50,,1b D168V,Hepatitis C virus,,>3 µM
Nc1ncnc2c1ncn2CCOCP(=O)(O)O,,,MIC,,,Epstein-Barr virus,,0.7 µg/mL
Nc1nc2c(ncn2C[C@H](CO)OCP(=O)(O)O)c(=O)[nH]1,,cytopathic effect,EC50,,GS,Human herpesvirus 6,HSB-2,5.6 µM
CC[C@H](C)[C@H]1NC(=O)[C@@H](NC(=O)[C@@H](CC(C)C)NC)[C@@H](C)OC(=O)[C@H](Cc2ccc(OC)cc2)N(C)C(=O)[C@@H]2CCCN2C(=O)[C@H](CC(C)C)NC(=O)[C@@H](C)C(=O)[C@H](C(C)C)OC(=O)C[C@@H]1O,,plaque count,inhibition,2.5 µg/mL,TYPE 3,Dengue virus,LLC-MK2,23.3%
COc1cc2c(c3c1c(=O)c1ccccc1n3C)C=CC(C)(C)O2,,cytopathic effect,EC50,,KOS,Herpes simplex virus 1,HeLa,>200 µg/mL
C[C@H]1COc2c(N3CCN(C)CC3)c(F)cc3c(=O)c(C(=O)O)cn1c23,,,MIC,,Clinical isolate RT2,Streptococcus pneumoniae,,16 µg/mL
OC[C@H]1O[C@@H](n2cnc3c(NC4CC4)nc(Cl)nc32)C[C@@H]1O,,cytopathic effect,EC50,,IRB-LA,Bovine herpesvirus 1,MDBK,>50 µM
O=C(O)P(=O)(O)O,,cytopathic effect,EC50,,GS,Human herpesvirus 6,HSB-2,8.4 µM
COC(=O)Nc1nc2ccc(Sc3ccccc3)cc2[nH]1,,,EC50,,10 isolates,Cryptococcus neoformans,,<0.015 µg/mL
CO[C@@H]1C[C@@H](C[C@H]2CC[C@H](C)[C@H]([C@@H](C)C(=O)O)O2)O[C@]2(O[C@](C)([C@H]3CC[C@@](C)([C@@H]4O[C@@H]([C@H]5O[C@@](O)(CO)[C@H](C)C[C@@H]5C)C[C@@H]4C)O3)C[C@H]2C)[C@@H]1C,,uracil uptake / radiometric,inhibition,0.05 µg/mL,RH,Toxoplasma gondii,,100%
Nc1ncnc2c1ncn2CCOCP(=O)(O)O,,antigen / flow cytometry,EC50,,GS,Human herpesvirus 6,HSB-2,28 µM
C=C[C@H]1CN2CC[C@H]1C[C@H]2[C@H](O)c1ccnc2ccccc12,,cytopathic effect,EC50,,KOS,Herpes simplex virus 1,HeLa,>200 µg/mL
CC(=O)N1CCN(c2ccc(OC[C@H]3CO[C@](Cn4ccnc4)(c4ccc(Cl)cc4Cl)O3)cc2)CC1,,,MIC,,Isogenic isolate 6 MDR1 (25X),Candida albicans,,≤0.008 µg/mL
C#C[C@]1(CO)O[C@@H](n2cnc3c(N)nc(F)nc32)CC1O,K65R,β-galactosidase / absorbance,EC50,,ROD9,HIV-2,MAGIC-5A,0.00017 µM
COc1ccc2c(O[C@@H]3C[C@H]4C(=O)N[C@]5(C(=O)NS(=O)(=O)C6CC6)C[C@H]5/C=C\CCCCN(C)C(=O)[C@@H]4C3)cc(-c3nc(C(C)C)cs3)nc2c1C,L1062M R1181K,antigen,EC50,,JFH1Res,Hepatitis C virus,Huh7.5,2.164 µM
CCC(C)n1ncn(-c2ccc(N3CCN(c4ccc(OC[C@H]5CO[C@](Cn6cncn6)(c6ccc(Cl)cc6Cl)O5)cc4)CC3)cc2)c1=O,,,Geometric mean MIC,,60 isolates,Aspergillus fumigatus,,0.65 µg/mL
COC(=O)Nc1nc2ccc(C(=O)c3cccs3)cc2[nH]1,,,EC50,,ATCC 14116,Cryptococcus neoformans,,0.2 µg/mL
OC[C@@H]1C[C@@H](O)[C@H](n2cnc3c(NC4CCCCC4)nccc32)O1,,cytopathic effect,EC50,,KV1772,Maedi-visna virus,Sheep chondrocytes G81092,1.6 µM
Nc1nccc2c1ncn2[C@@H]1C[C@H](CO)[C@@H](O)[C@H]1O,,cytopathic effect,EC50,,,Vesicular stomatitis virus,BHK-21,>400 µg/mL
Nc1nc(N)c2ncn(CCOCP(=O)(O)O)c2n1,,,MIC,,TYPE 4,Adenovirus,,>100 µg/mL
CC1=C(/C=C/C(C)=C/C=C/C(C)=C/CO)C(C)(C)CCC1,,cytopathic effect,EC50,,KOS,Herpes simplex virus 1,HeLa,>200 µg/mL
Nc1ncnc2c1ncn2[C@@H]1C=C(CO)[C@@H](O)[C@H]1O,,,MIC,,,Sindbis virus,,>10 µg/mL
Nc1nc(Cl)cc2c1ncn2[C@@H]1O[C@H](CO)C[C@H]1O,,cytopathic effect,EC50,,KV1772,Maedi-visna virus,Sheep chondrocytes G81092,15 µM
C[C@@H]1O[C@@H]1P(=O)(O)O,,cytopathic effect,EC50,,KOS,Herpes simplex virus 1,HeLa,>200 µg/mL
OC[C@H]1O[C@@H](n2cnc3c(NC4CCCC4)cc(Cl)nc32)[C@H](O)[C@@H]1O,,cytopathic effect,EC50,,IRB-LA,Bovine herpesvirus 1,MDBK,>50 µM
COc1cc(C[C@H](C)[C@H](C)Cc2ccc(O)c(O)c2)ccc1O,,broth dilution,MIC50,,ATCC 10231,Candida albicans,,31.25 µg/mL
C[C@@H]1CN(c2c(F)c(N)c3c(=O)c(C(=O)O)cn(C4CC4)c3c2F)C[C@H](C)N1,,broth dilution,MIC,,22,Mycobacterium avium complex,,0.12 µg/mL

4 of the rows above, restated:

smiles,changes,read by,endpoint,dose,strain or isolate,species,cell line,result
C=C[C@@H]1C[C@]1(NC(=O)[C@@H]1C[C@@H](Oc2nccc3ccc(Br)cc23)CN1C(C)=O)C(=O)NS(=O)(=O)C1CC1,,luciferase,EC50,,1b D168V,Hepatitis C virus,,>3 µM
CCC(C)n1ncn(-c2ccc(N3CCN(c4ccc(OC[C@H]5CO[C@](Cn6cncn6)(c6ccc(Cl)cc6Cl)O5)cc4)CC3)cc2)c1=O,,,Geometric mean MIC,,60 isolates,Aspergillus fumigatus,,0.65 µg/mL
C[C@@H]1CN(c2c(F)c(N)c3c(=O)c(C(=O)O)cn(C4CC4)c3c2F)C[C@H](C)N1,,broth dilution,MIC,,22,Mycobacterium avium complex,,0.12 µg/mL
OC[C@H]1O[C@@H](n2cnc3c(NC4CCCC4)cc(Cl)nc32)[C@H](O)[C@@H]1O,,cytopathic effect,EC50,,IRB-LA,Bovine herpesvirus 1,MDBK,>50 µM